The values below come from patent US8193224B2, “Medicinal composition for prevention or treatment of parasitic protozoan infection” (Fujifilm Corporation, priority 2004, dated 2012).

Type in all cases: cell-based
In data set [1] the test system is Plasmodium falciparum K1 strain. Briefly: Chloroquine resistant-Plasmodium falciparum growth inhibition screening test. The following applies: chemotherapy index = EC50 rat L6 cells / EC50 chloroquine resistant P. falciparum. The method, then: In the present example, protozoa of Plasmodium falciparum K1 strain was used. RPMI-1640 medium sterilized with a filter to which human serum was added to be 5%, was used in the experiment. Malarial parasites were cultured under 3% O2 concentration, 4% Co2 concentration, 93% N2 concentration, and at a temperature of 37° C.
The compounds of the present invention to be used in the present test and the positive target drug (chloroquine) were dissolved in DMSO to make a test solution of a predetermined concentration. Cultured malarial parasite infected-erythrocytes were collected by centrifugation, and diluted with non-infected erythrocyte so that the early infection rate is 0.15%. Hematocrit level at that time was 2.5%. 200 μL of malaria infected solution was added to wells of a 96-well culture plate, and adjusted by adding a test solution containing drug of a predetermined concentration or a drug-free DMSO. Test solutions were taken by duplicates. After culturing for 48 hours at 37° C., 0.5 μCi radioactive tritium (3H)-labeled hypoxanthine was added to each well. After further culturing for 24 hours under the same conditions, it was collected on a glass fiber filter and washed with distilled water. Radiation intensity was measured with a beta plate liquid scintillation counter (Wallac), and malarial parasite infection rates of the test solution added group and of the control group were calculated. Growth inhibition rate was calculated with the following formula based on the malarial parasite infection rate obtained in the above, to obtain a 50% growth inhibition concentration (EC50). Growth inhibition rate (%)={1−(b−a)/(c−a)}×100 a: early infection rate b: infection rate when test solution was added c: infection rate of the control

The subject of data set [2] is Trypanosoma brucei rhodensiense (STIB 900 strain). Briefly: African trypanosome protozoa growth inhibition screening test. Conditions: chemotherapy index = EC50 rat L6 cells / EC50 African trypanosome protozoa.
Data set [3] concerns Leishmania donovani (MHOM/ET/67/L82 strain). In words: Leishmania protozoa growth inhibition screening test. Conditions: chemotherapy index = EC50 rat L6 cells / EC50 leishmania protozoa.

For the molecule `CCn1c(=Cc2cccc[n+]2C)sc(=CC=C2Sc3ccccc3N2C)c1=O.Cc1ccc(S(=O)(=O)[O-])cc1` [A-4], the Selective toxicity in data set [1] was found to be 660; in data set [2], 190.
Turning to `CCn1c(=Cc2oc3ccccc3[n+]2CC)sc(=CC=C2N(C)c3ccccc3C2(C)C)c1=O` [A-8], the Selective toxicity is on record as 130 in data set [1], 6.0 in data set [2] and 32 in data set [3].
In the same order, the values of `CCn1c(=Cc2cc[n+](CC)c3ccccc23)sc(=CC=C2C=Cc3ccccc3N2C)c1=O` [A-14] are 67, 220 and 46.
In the same order, the values of `CCn1c(=Cc2sc3c4ccccc4ccc3[n+]2CC)sc(=CC=C2SCCN2C)c1=O` [A-9] are 110, 58 and 350.
Take `C=CCn1c(=Cc2oc3ccccc3[n+]2C)sc(=CC=C2Sc3ccccc3N2C)c1=O` [A-13]: the figures for the Selective toxicity in data set [2] and in data set [3] were 120 and 280, respectively.
